Experimental data reported in paper PMC7182600 (Influenza and Other Respiratory Viruses, 2020).

System: NA of rPhuket3073/Yamagata‐E117A
Type: biochemical, influenza B virus

CCC(CC)O[C@@H]1C=C(C(=O)O)C[C@H](N)[C@H]1NC(C)=O [Oseltamivir carboxylate]
fold differences in IC50: 38 075.9 ± 7365.0 (586.6) fold
